Results of unrelated studies side by side (data: NIAID ChemDB).

Shared fields: whole-cell or culture tests; agent: Varicella zoster virus; read by: plaque count; read-out: EC50

ECn is the concentration giving n% inhibition of infection, replication or growth. An empty or dashed field is not shown. Conditions beyond the fields shown may differ between rows.

SMILES	cell line	strain	value
O=C(O)CP(=O)(O)O	HEL	YS-W1 H13	7 µg/mL
Nc1nc(N)c2ncn([C@@H]3O[C@H](CO)[C@H]3CO)c2n1	HEL	(TK-)/YS/R	5.2 µg/mL
CCCCCCCCC#Cc1cn(S(=O)(=O)c2ccc(C)cc2)c(=O)[nH]c1=O	HEL	07/1	10 µM
CC(C)[C@H](N)C(=O)N[C@H](C(=O)OCC(COC(=O)[C@@H](NC(=O)[C@@H](N)C(C)C)C(C)C)OCn1cnc2c(=O)[nH]c(N)nc21)C(C)C	HFF	-	18.4 µM
Nc1ncnc2c1ncn2[C@@H]1O[C@H](CO)[C@H]1CO	HEL	(TK-)/YS/R	46 µg/mL
CCCCCCCCCCC#Cc1cn(S(=O)(=O)c2ccc(C)cc2)c(=O)[nH]c1=O	HEL	07/1	27 µM
CCCCCCCCCCCc1cc2cn([C@H]3C[C@H](O)[C@@H](CO)O3)c(=O)nc2o1	HEL	YS	0.37 µM
CC(C)[C@H](N)C(=O)OCC(COC(=O)[C@@H](N)C(C)C)OCn1cnc2c(=O)[nH]c(N)nc21	HFF	-	11.3 µM
Cc1cn([C@@H]2O[C@H](CO)[C@@H](O)[C@@H]2O)c(=O)[nH]c1=O	-	Kawaguchi (BrdU-resistant)	>10 µg/mL
Cn1cc(C(=O)NCc2ccc(Cl)cc2)c(=O)c2cc(CN3CCOCC3)ccc21	HFF	GA varicella isolate	0.2 µM
CC(=O)c1c(-c2ccc(Cl)c(Cl)c2)cc2ccccn12	MRC-5	G-31	10 µM
Nc1ncnc2c1ncn2[C@@H]1C[C@H](CO)[C@@H](O)[C@@H]1O	HEL	YS-W1 H13	1 µg/mL
CCCCCCCCC#Cc1c[nH]c(=O)[nH]c1=O	HEL	OKA	>16 µM
Nc1nc(N)c2ncn(CCOCP(=O)(O)O)c2n1	HEL	13 isolates	5.1 µM
CC(=O)c1ccc2cc(-c3ccccc3)cn2c1	MRC-5	G-31	>50 µM
Nc1nc(=O)n([C@@H]2O[C@H](CO)[C@@H](O)[C@@H]2F)cc1I	HEL	YS (TK+)	0.14 µM
Cc1ccc(S(=O)(=O)n2cc(I)c(=O)[nH]c2=O)cc1	HEL	07/1	80 µM
O=c1[nH]c(=O)n([C@@H]2O[C@H](CO)[C@@H](O)[C@@H]2O)cc1/C=C/Br	-	Kawaguchi (BrdU-resistant)	>1 µg/mL
CCc1cn([C@@H]2S[C@H](CO)[C@@H](O)[C@@H]2F)c(=O)[nH]c1=O	CCRF-HSB-2	OKA	101 µM
Nc1nc2c(ncn2CCC(CO)CO)c(=O)[nH]1	HEL	YS/R (TK-)	>194 µM
O=c1[nH]c(=O)n([C@H]2C[C@H](O)[C@@H](CO)O2)cc1/C=C\Cl	HEL	OKA	0.2 µg/mL
Nc1ccn(C[C@@H](CO)OCP(=O)(O)O)c(=O)n1	HEL	13 isolates	0.6 µM
CCCCCCCCCCCCc1cc2cn([C@H]3C[C@H](O)[C@@H](CO)O3)c(=O)nc2o1	HEL	YS/R (TK-)	>50 µM
O=C(O)CP(=O)(O)O	HEL	YS/R (TK-)	26.4 µM
OC[C@H]1O[C@@H](c2cc(C(O)CBr)c(F)cc2F)C[C@@H]1O	HEL	OKA (TK+)	>20 µg/mL
Cc1cn([C@@H]2O[C@H](CO)[C@@H](O)[C@@H]2F)c(=O)[nH]c1=O	CCRF-HSB-2	OKA	0.11 µM
Nc1nc(=O)n([C@H]2C[C@H](O)[C@@H](CO)O2)cc1/C=C/Cl	HEL	YS/R (TK-)	>40 µg/mL
CC1(C)[C@H](CCO)C[C@@H]1n1nnc2c(N)ncnc21	-	07/1 (TK-)	9.3 µg/mL
CCCCCCCCc1cc2cn([C@H]3C[C@H](O)[C@@H](CO)O3)c(=O)nc2s1	HEL	OKA	0.001 µM
O=c1[nH]c(=O)n([C@H]2C[C@H](O)[C@@H](CO)O2)cc1/C=C/Cl	HEL	13 isolates	0.015 µM
Nc1nc2c(ncn2COCCO)c(=O)[nH]1	-	07/1 (TK-)	7.8 µg/mL
Clc1cccn2cc(-c3ccccc3)cc12	MRC-5	G-31	12.5 µM
CC(=O)OCC(CO)OCn1cnc2c(=O)[nH]c(N)nc21	HFF	-	0.6 µg/mL
Nc1nc2c(ncn2[C@H]2CCC[C@H]2CO)c(=O)[nH]1	HEL	07/1 (TK-)	>50 µg/mL
Nc1nc2c(ncn2COCCO)c(=O)[nH]1	HEL	TK+/YS	0.33 µg/mL
O=c1c2ncn(COC(CO)CO)c2nc2[nH]c(-c3ccccc3)cn12	HEL	OKA	0.4 µg/mL
CC1(C)[C@H](CCO)C[C@@H]1n1cnc2c(=O)[nH]cnc21	-	OKA (TK+)	>50 µg/mL
Nc1ncc2ncn(C[C@H]3CCC[C@H]3CO)c2n1	HEL	YS/R (TK-)	>50 µg/mL
O=c1[nH]c(=O)n([C@@H]2O[C@H](CO)[C@@H](O)[C@@H]2O)cc1/C=C/Cl	CCRF-HSB-2	OKA	0.0056 µM
Nc1nc2c(ncn2C[C@H]2CCC[C@H]2CO)c(=O)[nH]1	HEL	YS (TK+)	>50 µg/mL
Nc1nc2c(ncn2COCCO)c(=O)[nH]1	HFF	-	0.24 µg/mL
Nc1ncnc2c1ncn2C[C@@H](CO)OCP(=O)(O)O	HEL	13 isolates	0.14 µM
OC[C@H]1O[C@@H](c2cc(C(O)C(Br)Br)c(F)cc2F)C[C@@H]1O	HEL	OKA (TK+)	>200 µg/mL
O=c1nc2oc(CCCCCCCCCCl)cc2cn1[C@H]1C[C@H](O)[C@@H](CO)O1	HEL	YS	0.02 µM
O=C(NCc1ccc(Cl)cc1)c1c[nH]c2ccc(CCCO)cc2c1=O	-	NAG	0.1 µM
CCCC(=O)OCC(CO)OCn1cnc2c(=O)[nH]c(N)nc21	HFF	-	0.2 µg/mL
CCCCCCc1cc2cn([C@H]3C[C@H](O)[C@@H](CO)O3)c(=O)nc2[nH]1	HEL	YS	>50 µM

Again, the opening 5 rows:

| SMILES | cell line | strain | value |
|---|---|---|---|
| O=C(O)CP(=O)(O)O | HEL | YS-W1 H13 | 7 µg/mL |
| Nc1nc(N)c2ncn([C@@H]3O[C@H](CO)[C@H]3CO)c2n1 | HEL | (TK-)/YS/R | 5.2 µg/mL |
| CCCCCCCCC#Cc1cn(S(=O)(=O)c2ccc(C)cc2)c(=O)[nH]c1=O | HEL | 07/1 | 10 µM |
| CC(C)[C@H](N)C(=O)N[C@H](C(=O)OCC(COC(=O)[C@@H](NC(=O)[C@@H](N)C(C)C)C(C)C)OCn1cnc2c(=O)[nH]c(N)nc21)C(C)C | HFF | - | 18.4 µM |
| Nc1ncnc2c1ncn2[C@@H]1O[C@H](CO)[C@H]1CO | HEL | (TK-)/YS/R | 46 µg/mL |